Results of unrelated studies side by side (data: NIAID ChemDB).

Shared fields: whole-cell or culture tests; species: Mycobacterium avium complex; read-out: MIC

Conditions beyond the fields shown may differ between rows. Two numbers with a dash give a range or band.

{"smiles": "CO[C@H]1/C=C/O[C@@]2(C)Oc3c(C)c(O)c4c(=O)c(c5oc6cc(N7CCN(CC(C)C)CC7)cc(=O)c6nc5c4c3=C2O)NC(=O)/C(C)=C\\C=C\\[C@H](C)[C@H](O)[C@@H](C)[C@@H](O)[C@@H](C)[C@H](OC(C)=O)[C@@H]1C", "strain": "N-979 (HIV+)", "value": "0.0625 µg/mL"}
{"smiles": "CC(C)(C)NC(=O)OCCN=c1ssc2ccccc12", "strain": "ATCC 15769", "value": "8 µg/mL"}
{"smiles": "CC[C@H]1OC(=O)[C@H](C)[C@@H](O[C@H]2C[C@@](C)(OC)[C@@H](OC(C)=O)[C@H](C)O2)[C@H](C)[C@@H](O[C@@H]2O[C@H](C)C[C@H](N(C)C)[C@H]2OC(=O)NNCc2cccnc2)C(C)(O)C[C@@H](C)/C(=N\\OCCCC2CCCCC2)[C@H](C)[C@@H](O)[C@]1(C)O", "strain": "20092 (clarithromycin-resistant)", "value": "1.56 µg/mL"}
{"smiles": "CN[C@@H]1[C@H](O[C@H]2[C@H](O[C@H]3[C@H](O)[C@@H](O)[C@H](N=C(N)N)[C@@H](O)[C@@H]3N=C(N)N)O[C@@H](C)[C@]2(O)C=O)O[C@@H](CO)[C@H](O)[C@H]1O", "strain": "CIPT 140310006", "value": ">50 µg/mL"}
{"smiles": "COc1cccc(Sc2ccncc2)c1", "strain": "NJ211", "value": ">12.8 µg/mL"}
{"smiles": "CCCCCCCCCCCCCCO/N=C1\\[C@H](C)CC(C)(O)[C@H](O[C@@H]2O[C@H](C)C[C@H](N(C)C)[C@H]2O)[C@@H](C)[C@H](OC2C[C@@](C)(OC)[C@@H](O)[C@H](C)O2)[C@@H](C)C(=O)O[C@H](CC)[C@@](C)(O)[C@H](O)[C@H]1C", "strain": "20092", "value": ">50 µg/mL"}
{"smiles": "Cc1c(CNc2cnc3ccccc3c2)cnc2nc(N)nc(N)c12", "strain": "NJ211", "value": "≤0.13 µg/mL"}
{"smiles": "CC[C@H]1OC(=O)[C@H](C)[C@@H](O[C@H]2C[C@@](C)(OC)[C@@H](O)[C@H](C)O2)[C@H](C)[C@@H](O[C@@H]2O[C@H](C)C[C@H](N(C)C)[C@H]2O)[C@](C)(OC)C[C@@H](C)C(=O)[C@H](C)[C@@H](O)[C@]1(C)O", "strain": "N-269 (HIV-)", "value": "1 µg/mL"}
{"smiles": "COc1ccc(C)cc1NCc1cnc2nc(N)nc(N)c2c1C", "strain": "NJ211", "value": "≤0.13 µg/mL"}
{"smiles": "CO[C@H]1/C=C/O[C@@]2(C)Oc3c(C)c(O)c4c(O)c(c5c(c4c3C2=O)NC2(CCN(CC(C)C)CC2)N=5)=NC(=O)/C(C)=C\\C=C\\[C@H](C)[C@H](O)[C@@H](C)[C@@H](O)[C@@H](C)[C@H](OC(C)=O)[C@@H]1C", "strain": "F", "value": "0.125 µg/mL"}
{"smiles": "CC1(C)N=C(N)N=C(N)N1OCCCOc1cc(Cl)c(Cl)cc1Cl", "strain": "2212", "value": "4 µg/mL"}
{"smiles": "CC[C@H]1OC(=O)[C@H](C)[C@@H](OC2C[C@@](C)(OC)[C@@H](O)[C@H](C)O2)[C@H](C)[C@@H](O[C@@H]2O[C@H](C)C[C@H](N(C)C)[C@H]2O)C(C)(O)C[C@@H](C)/C(=N\\OCCCCCc2ccccc2)[C@H](C)[C@@H](O)[C@]1(C)O", "strain": "20096", "value": "6.25 µg/mL"}
{"smiles": "NC[C@H]1O[C@H](O[C@H]2[C@H](O)[C@@H](O[C@H]3O[C@H](CO)[C@@H](O)[C@H](N)[C@H]3O)[C@H](N)C[C@@H]2N)[C@H](O)[C@@H](O)[C@@H]1O", "strain": "CIPT 140310002", "value": "5 µg/mL"}
{"smiles": "CCNC(=O)OCCn1sc2ccccc2c1=S", "strain": "AN3", "value": "4 µg/mL"}
{"smiles": "CO[C@H]1/C=C/O[C@@]2(C)Oc3c(C)c(O)c4c(O)c(c5c(c4c3C2=O)NC2(CCN(CC(C)C)CC2)N=5)=NC(=O)/C(C)=C\\C=C\\[C@H](C)[C@H](O)[C@@H](C)[C@@H](O)[C@@H](C)[C@H](OC(C)=O)[C@@H]1C", "strain": "N-265 (HIV-)", "value": "0.4 µg/mL"}
{"smiles": "Cc1cccc(Sc2nc(Cl)nc3nc[nH]c23)c1", "strain": "NJ211", "value": ">12.8 µg/mL"}
{"smiles": "CCO/N=C1\\[C@H](C)CC(C)(O)[C@H](O[C@@H]2O[C@H](C)C[C@H](N(C)C)[C@H]2O)[C@@H](C)[C@H](OC2C[C@@](C)(OC)[C@@H](O)[C@H](C)O2)[C@@H](C)C(=O)O[C@H](CC)[C@@](C)(O)[C@H](O)[C@H]1C", "strain": "20039", "value": "3.13 µg/mL"}
{"smiles": "COc1ccc(C)c(NCc2cnc3nc(N)nc(N)c3c2C)c1", "strain": "NJ211", "value": "≤0.13 µg/mL"}
{"smiles": "NNC(=O)c1ccncc1", "strain": "E12337", "value": "0.08–0.1 µg/mL"}
{"smiles": "OCCN=c1ssc2ccccc12", "strain": "AN3", "value": "2 µg/mL"}
{"smiles": "c1ccc(CSc2ccncc2)cc1", "strain": "NJ211", "value": ">12.8 µg/mL"}
{"smiles": "CCC(=O)O[C@H]1[C@H](C)OC(O[C@H]2[C@H](C)[C@@H](O[C@@H]3O[C@H](C)C[C@H](N(C)C)[C@H]3O)C(C)(O)C[C@@H](C)/C(=N\\OCCCOc3ccccc3)[C@H](C)[C@@H](O)[C@](C)(O)[C@@H](CC)OC(=O)[C@@H]2C)C[C@@]1(C)OC", "strain": "20092 (clarithromycin-resistant)", "value": "0.78 µg/mL"}
{"smiles": "CC[C@H]1OC(=O)[C@H](C)[C@@H](OC2C[C@@](C)(OC)[C@@H](O)[C@H](C)O2)[C@H](C)[C@@H](O[C@@H]2O[C@H](C)C[C@H](N(C)C)[C@H]2O)C(C)(O)C[C@@H](C)/C(=N\\OCCc2cccs2)[C@H](C)[C@@H](O)[C@]1(C)O", "strain": "20096", "value": "25 µg/mL"}
{"smiles": "Cc1cccc(CSc2ccccn2)c1", "strain": "NJ211", "value": ">12.8 µg/mL"}
{"smiles": "NNC(=O)c1ccncc1", "strain": "N-269 (HIV-)", "value": "4 µg/mL"}
{"smiles": "CCNC(=O)[C@@H](NC(=O)Cc1ccccc1)[C@@H]1N[C@@H](C(=O)NCCNC(=O)[C@@H]2N[C@@H]([C@H](NC(=O)Cc3ccccc3)C(=O)NCC)SC2(C)C)C(C)(C)S1", "strain": "CIPT 140310003 (smooth)", "value": "50 µg/mL"}
{"smiles": "CC1(C)N=C(N)N=C(N)N1OCCCOc1cc(Cl)c(Cl)cc1Cl", "strain": "DW2", "value": "1 µg/mL"}
{"smiles": "CC[C@H]1OC(=O)[C@H](C)[C@@H](OC2C[C@@](C)(OC)[C@@H](O)[C@H](C)O2)[C@H](C)[C@@H](O[C@@H]2O[C@H](C)C[C@H](N(C)C)[C@H]2O)C(C)(O)C[C@@H](C)/C(=N\\OCCCc2ccccc2)[C@H](C)[C@@H](O)[C@]1(C)O", "strain": "20039", "value": "1.56 µg/mL"}
{"smiles": "CCNC(=O)OCCN=c1ssc2ccccc12", "strain": "AN1", "value": "4 µg/mL"}
{"smiles": "CC[C@H]1OC(=O)[C@H](C)[C@@H](OC2C[C@@](C)(OC)[C@@H](O)[C@H](C)O2)[C@H](C)[C@@H](O[C@@H]2O[C@H](C)C[C@H](N(C)C)[C@H]2O)C(C)(O)C[C@@H](C)/C(=N\\OCCSc2ccccc2)[C@H](C)[C@@H](O)[C@]1(C)O", "strain": "20096", "value": "12.5 µg/mL"}
{"smiles": "CC[C@H]1OC(=O)[C@H](C)[C@@H](OC2C[C@@](C)(OC)[C@@H](O)[C@H](C)O2)[C@H](C)[C@@H](O[C@@H]2O[C@H](C)C[C@H](N(C)C)[C@H]2O)C(C)(O)C[C@@H](C)/C(=N\\OCCCCCc2ccccc2)[C@H](C)[C@@H](O)[C@]1(C)O", "strain": "20092 (clarithromycin-resistant)", "value": "6.25 µg/mL"}
{"smiles": "Cc1c(CNc2ccc3ccc4cccc5ccc2c3c45)cnc2nc(N)nc(N)c12", "strain": "NJ211", "value": "≤0.13 µg/mL"}
{"smiles": "CC[C@H]1OC(=O)[C@H](C)[C@@H](OC(=O)Cc2cccnc2)[C@H](C)[C@@H](O[C@@H]2O[C@H](C)C[C@H](N(C)C)[C@H]2O)C(C)(O)C[C@@H](C)/C(=N\\OCCCOc2ccccc2)[C@H](C)[C@@H](O)[C@]1(C)O", "strain": "20092 (clarithromycin-resistant)", "value": "12.5 µg/mL"}
{"smiles": "CC(C)NC(=O)OCCN=c1ssc2ccccc12", "strain": "ISS 486", "value": "4 µg/mL"}
{"smiles": "CC[C@H]1OC(=O)[C@H](C)[C@@H](O[C@H]2C[C@@](C)(OC)[C@@H](O)[C@H](C)O2)[C@H](C)[C@@H](O[C@@H]2O[C@H](C)C[C@H](N(C)C)[C@H]2O)[C@](C)(O)C[C@@H](C)/C(=N\\OC)[C@H](C)[C@@H](O)[C@]1(C)O", "strain": "20092", "value": ">50 µg/mL"}
{"smiles": "Cc1c(CNc2ccc(Cl)c(Cl)c2)cnc2nc(N)nc(N)c12", "strain": "NJ168", "value": "≤0.13 µg/mL"}
{"smiles": "Cc1ccc(CSc2ccccn2)cc1", "strain": "NJ211", "value": ">12.8 µg/mL"}
{"smiles": "CC1(C)S[C@@H]2[C@H](NC(=O)[C@H](C(=O)[O-])c3ccsc3)C(=O)N2[C@H]1C(=O)[O-].[Na+].[Na+]", "strain": "CIPT 140310012", "value": "50 µg/mL"}

Repeating the final 5 entries:

smiles | strain | value
CC(C)NC(=O)OCCN=c1ssc2ccccc12 | ISS 486 | 4 µg/mL
CC[C@H]1OC(=O)[C@H](C)[C@@H](O[C@H]2C[C@@](C)(OC)[C@@H](O)[C@H](C)O2)[C@H](C)[C@@H](O[C@@H]2O[C@H](C)C[C@H](N(C)C)[C@H]2O)[C@](C)(O)C[C@@H](C)/C(=N\OC)[C@H](C)[C@@H](O)[C@]1(C)O | 20092 | >50 µg/mL
Cc1c(CNc2ccc(Cl)c(Cl)c2)cnc2nc(N)nc(N)c12 | NJ168 | ≤0.13 µg/mL
Cc1ccc(CSc2ccccn2)cc1 | NJ211 | >12.8 µg/mL
CC1(C)S[C@@H]2[C@H](NC(=O)[C@H](C(=O)[O-])c3ccsc3)C(=O)N2[C@H]1C(=O)[O-].[Na+].[Na+] | CIPT 140310012 | 50 µg/mL